PubChem BioAssay AID504761 | Drosophila RNAi Screening Center, 2011
Aim: 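Genome-wide fly cell screen for genes dengue virus requires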 (primary screen). System: D.Mel-2 cells from Drosophila. Knock-down reagent: long dsRNA against Drosophila genes. Treatment: infection with dengue virus type 2; dose and infection time not stated. Measured: 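Per well on two replicate plates, imaging gave the percent of cells positive for viral envelope protein, ranked by infection, and a nuclear count of cells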. Reading the numbers: infection score: higher = more virus-infected cells; cell count: higher = more cells in the well. Hit rule: 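Very low infection ranking in both replicate wells (chance probability at most 0.065), then a retest showing infection dropped 1.5-fold or more at p below 0.05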. Calls: active = confirmed: knock-down lowers infection; inactive = not picked or not confirmed.
The screen tested about 22,000 reagents; this is an unselected part of those with a known target gene and a result. Of all reagents, 116 (0.52%) were called active. 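Calls depend on retest data that are not deposited; infection was ranked per plate without normalising between plates; the unit of the infection score is not given.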 Raw values are not corrected between plates. No sequences are given here. Not stated in the record: the amount of reagent, the time to read-out.

gene | amplicon | infection score, replicate 1 | infection score, replicate 2 | cell count, replicate 1 | cell count, replicate 2 | call
CG32053 | DRSC10683 | 7.39 | 7.64 | 6685 | 6519 | inactive
CG14369 | DRSC14831 | 4.89 | 9.72 | 5987 | 5795 | inactive
CG14369 | DRSC25713 | 9.53 | 3.88 | 6192 | 6284 | inactive
CG31908 | DRSC23243 | 2.92 | 5.14 | 7455 | 7158 | inactive
CG15461 | DRSC20532 | 2.49 | 6.12 | 5979 | 5263 | inactive
DAT | DRSC07394 | 26.5 | 29.5 | 6491 | 3357 | inactive
CG15029 (retired record) | DRSC19610 | 3.52 | 4.92 | 6481 | 6909 | inactive
CG15029 (retired record) | DRSC27659 | 27.9 | 15.4 | 5335 | 6110 | inactive
fl(2)d | DRSC07620 | 4.62 | 15 | 6231 | 4849 | inactive
CG18766 | DRSC15936 | 4.65 | 3.48 | 6255 | 6781 | inactive
CG18766 | DRSC25739 | 11.3 | 14.7 | 6769 | 5721 | inactive
Ir60a | DRSC04212 | 2.7 | 19.7 | 6666 | 3706 | inactive
CG8701 | DRSC07237 | 8.73 | 8.24 | 6291 | 6240 | inactive
Qsox2 | DRSC15287 | 1.78 | 1.69 | 6507 | 6553 | inactive
Qsox2 | DRSC26634 | 2.37 | 6.23 | 6111 | 5840 | inactive
CG8249 | DRSC07125 | 9.61 | 8.58 | 6536 | 6734 | inactive
Idi | DRSC15918 | 3.68 | 4.96 | 6544 | 6154 | inactive
CG14829 | DRSC10199 | 2.73 | 2.81 | 6406 | 6403 | inactive
MED31 | DRSC23432 | 7.19 | 3.7 | 6396 | 6319 | inactive
CG11378 | DRSC18627 | 0.51 | 1.6 | 6450 | 6810 | inactive
CG11378 | DRSC29720 | 12.7 | 5.97 | 6561 | 5912 | inactive
CG3483 | DRSC04371 | 37.3 | 30.1 | 6478 | 6133 | inactive
CG1806 | DRSC19787 | 1.65 | 4 | 6296 | 6479 | inactive
Ugt303A1 | DRSC15641 | 1.28 | 4.99 | 6775 | 6847 | inactive
Amt | DRSC16055 | 2.55 | 4.24 | 6357 | 6136 | inactive
Amt | DRSC27970 | 10.9 | 11.5 | 6471 | 6067 | inactive
CG9795 | DRSC12336 | 11.6 | 24.3 | 6401 | 5892 | inactive
CG9795 | DRSC24244 | 10.3 | 4.7 | 5782 | 6878 | inactive
mus81 | DRSC18180 | 7.37 | 4.08 | 5862 | 5418 | inactive
mus81 | DRSC18644 | 4.45 | 7.81 | 5999 | 5662 | inactive
Cph | DRSC25005 | 15.8 | 7.76 | 6954 | 6408 | inactive
betaNACtes6 | DRSC22925 | 1.22 | 2.19 | 6144 | 7160 | inactive
betaNACtes6 | DRSC26649 | 6.37 | 1.18 | 5577 | 5781 | inactive
CG11523 | DRSC11669 | 14.2 | 16.1 | 5931 | 6329 | inactive
CG11523 | DRSC26429 | 1.21 | 4.17 | 6283 | 6192 | inactive
Mkk4 | DRSC16739 | 27.2 | 21.1 | 5988 | 6214 | inactive
Mkk4 | DRSC29113 | 14.6 | – | 5511 | 357 | inactive
S-Lap3 | DRSC10956 | 7.43 | 11.5 | 5870 | 5755 | inactive
S-Lap3 | DRSC23958 | 7.62 | 8.29 | 6139 | 6176 | inactive
Gyc89Da | DRSC15008 | 4.44 | 8.45 | 6469 | 5517 | inactive
lectin-28C | DRSC03010 | 5.73 | 8.16 | 6143 | 6614 | inactive
lectin-28C | DRSC26982 | 12 | 8.53 | 6117 | 6825 | inactive
CG2202 | DRSC19841 | 7.64 | 2.68 | 6258 | 6414 | inactive
CG2202 | DRSC23452 | 3.73 | 3.06 | 6119 | 5689 | inactive
S2P | DRSC07311 | 8.44 | 8.08 | 6753 | 6720 | inactive
S2P | DRSC27864 | 3.43 | 2.23 | 5890 | 6635 | inactive
Rpn7 | DRSC16841 | 4.1 | 1.41 | 1754 | 2130 | inactive
Rpn7 | DRSC25951 | 4.33 | 0.48 | 2751 | 3734 | inactive
tapas | DRSC05950 | 5.43 | 6.1 | 6149 | 6095 | inactive
Atac1 | DRSC03155 | 1.17 | 4.89 | 6397 | 6076 | inactive
tomboy40 | DRSC04918 | 34.7 | 25.5 | 6102 | 6081 | inactive
tomboy40 | DRSC28442 | – | 32.4 | 309 | 5653 | inactive
CG2111 | DRSC18205 | 2.26 | 2.37 | 6516 | 6506 | inactive
CG2111 | DRSC27609 | 3.26 | 4.34 | 6772 | 6702 | inactive
slgA | DRSC20586 | 2.21 | 1.13 | 6692 | 6924 | inactive
slgA | DRSC27543 | 14.3 | 10.2 | 5771 | 6972 | inactive
CR33315 | DRSC22947 | 1.68 | 2.59 | 6805 | 7361 | inactive
CR33315 | DRSC27669 | 18 | 3.93 | 5280 | 6316 | inactive
Flad2 | DRSC02531 | 3.38 | 2.21 | 6795 | 6749 | inactive
Flad2 | DRSC27627 | 32.8 | 13.7 | 5811 | 6776 | inactive
Strn-Mlck | DRSC05032 | – | 0.61 | 367 | 495 | inactive
Strn-Mlck | DRSC07471 | 11.8 | 9.91 | 6687 | 7074 | inactive
Hsc70-4 | DRSC16711 | 4.32 | 15.2 | 2572 | 2990 | inactive
Hsc70-4 | DRSC29729 | 24.5 | 18.1 | 3973 | 4714 | inactive
SmD3 | DRSC07553 | 8.07 | 13.7 | 4348 | 4431 | inactive
SmD3 | DRSC29356 | 17.8 | – | 4457 | 456 | inactive
Gr58a | DRSC03910 | 5.9 | 4.1 | 6250 | 5711 | inactive
Fatp (retired record) | DRSC03054 | 3.12 | 14 | 6641 | 2834 | inactive
CG32834 | DRSC21929 | 4.98 | 10.9 | 6327 | 5433 | inactive
CG32834 | DRSC28346 | 12.9 | 4.94 | 6255 | 5987 | inactive
Dnali1 | DRSC16158 | 9.92 | 9.24 | 6412 | 6842 | inactive
CG15014 | DRSC08468 | 3.38 | 1.26 | 5829 | 5548 | inactive
CG15014 | DRSC27374 | 30.7 | 27.7 | 6017 | 6285 | inactive
Ir40a | DRSC03732 | 4.13 | 10.6 | 6557 | 6958 | inactive
Ir40a | DRSC03733 | 1.96 | 6.09 | 6993 | 6557 | inactive

5 entries already listed, sorted by “cell count, replicate 2”, high to low:
gene | amplicon | infection score, replicate 1 | infection score, replicate 2 | cell count, replicate 1 | cell count, replicate 2 | call
S2P | DRSC07311 | 8.44 | 8.08 | 6753 | 6720 | inactive
S2P | DRSC27864 | 3.43 | 2.23 | 5890 | 6635 | inactive
CG2202 | DRSC23452 | 3.73 | 3.06 | 6119 | 5689 | inactive
Rpn7 | DRSC25951 | 4.33 | 0.48 | 2751 | 3734 | inactive
Rpn7 | DRSC16841 | 4.1 | 1.41 | 1754 | 2130 | inactive
